Pooled drug test results. Numbers come from NIAID ChemDB, via PubChem.

Common to all: toxicity to cultured cells; measure: CC50

CCn is the concentration with n% toxicity to the cells.

Cc1cccc(C(C)C)c1NC(=O)NCCc1ccc2c(n1)NCCC2 ; cell line: PBMC ; value: 10 µM
COC(=O)N[C@H](C(=O)NC(C)(C)CCC[C@@H](CO)N(CCCF)S(=O)(=O)c1ccc(N)cc1)C(c1ccccc1)c1ccccc1 ; method: microscopy ; cell line: T lymphoid cells ; value: >10 µM
Cc1ccc(-n2ncc3c(Nc4ccc(C#N)c(Cl)c4)ncnc32)c(C)c1 ; cell line: HUH 9B ; value: 18 µM
CC(=O)N1CCN(c2cccc(-c3cc(=O)n(O)c4ncccc34)c2)CC1 ; cell line: HeLa ; value: <100 µM
CC(C)N(Cc1cccc(OCCCCCC(=O)OC(=O)O)c1)C(=O)c1ccc(-c2ccc3cc[nH]c3c2)cc1 ; cell line: HEK 293 ; value: >20 µM
CC(C)(C)OC(=O)Nc1ccc2c(c1)Cc1cc(NC(N)=S)ccc1-2 ; method: MTS ; cell line: Ava5-EG(delta4AB)SEAP ; value: >1 µM
CC(C)C[C@@H]1NC(=O)[C@H](Cc2c[nH]c3ccccc23)NC(=O)[C@@H](CC(C)C)NC(=O)[C@H](CCCCN)NC(=O)[C@H](C(C)C)NC(=O)[C@@H](CC(C)C)NC1=O ; method: MTT ; cell line: Lung carcinoma cells ; value: >30 µM
CC[C@@H](CCC[C@@H](CO)N(CCC(C)C)S(=O)(=O)c1ccc(N)cc1)NC(=O)C1(NC(=O)OC(C)(C)C)C[C@@H]1c1ccccc1 ; method: microscopy ; cell line: T lymphoid cells ; value: >10 µM
O=C(NCCc1ccc2c(n1)NCCC2)NCc1cncnc1 ; cell line: PBMC ; value: 50 µM
CC[C@@H](CCC[C@@H](CO)N(CC(C)C)S(=O)(=O)c1ccc(CO)cc1)NC(=O)[C@@H](NC(=O)OC)C(c1ccc(F)cc1)c1ccc(F)cc1 ; method: microscopy ; cell line: T lymphoid cells ; value: >10 µM
NC(=S)Nc1cccc(OCCCCCOc2ccc(N3CCCCC3)cc2)c1 ; method: MTS ; cell line: Ava5-EG(delta4AB)SEAP ; value: >1 µM
C=CCC1=CCCc2cc(OC)c(OC)cc21 ; cell line: HepG2 ; value: <7.5 µM
CCCCNC(=S)Nc1cccc(OCCCCCc2ccccc2)c1 ; method: MTS ; cell line: Ava5-EG(delta4AB)SEAP ; value: >1 µM
O=C(NCCc1cncc(-n2ccnc2)n1)Nc1cccc(F)c1 ; cell line: PBMC ; value: 50 µM
CCCCc1ccc(Nc2ncnc3c2cnn3-c2cccc(Cl)c2)cc1 ; cell line: HUH 9B ; value: >50 µM
COC(=O)N[C@H](C(=O)N[C@@H](C)CCC[C@@H](CO)N(C(C)C)S(=O)(=O)c1ccc(N)cc1)C(c1cccc(F)c1)c1cccc(F)c1 ; method: microscopy ; cell line: T lymphoid cells ; value: >10 µM
CC(C)C[C@@H]1NC(=O)[C@H](Cc2c[nH]c3ccccc23)NC(=O)CNC(=O)[C@H](CO)NC(=O)[C@H](C(C)C)NC(=O)[C@@H](CC(C)C)NC1=O ; method: MTT ; cell line: Lung carcinoma cells ; value: >30 µM
S=C(Nc1ccc2c(c1)Cc1cc(Br)ccc1-2)Nc1cccc2ccccc12 ; method: MTS ; cell line: Ava5-EG(delta4AB)SEAP ; value: >1 µM
O=C(Nc1ccc2c(c1)OCO2)c1cc(-c2cccs2)nc2ccccc12 ; cell line: HEK 293 ; value: >20 µM
O=C(NCCc1cccc(-n2ccnc2)n1)NC1CCCCC1 ; cell line: PBMC ; value: 50 µM
CC(C)C[C@@H]1NC(=O)[C@H](Cc2c[nH]c3ccccc23)NC(=O)[C@@H](Cc2ccccc2)NC(=O)[C@H](CCCCN)NC(=O)[C@H](C(C)C)NC(=O)[C@@H](CC(C)C)NC1=O ; method: MTT ; cell line: Lung carcinoma cells ; value: >30 µM
NC(=S)Nc1cccc(OCCCCCOc2ccc(-c3ccsc3)cc2)c1 ; method: MTS ; cell line: Ava5-EG(delta4AB)SEAP ; value: >1 µM
CCOc1ccc(Nc2ncnc3c2cnn3-c2ccccc2Cl)cc1 ; cell line: HUH 9B ; value: 46 µM
CCOC(=O)CCCCCOc1cccc(CN(C(=O)c2ccc(-c3cnc(OC)nc3OC)cc2)C(C)C)c1 ; cell line: HEK 293 ; value: >20 µM
CCOc1ncccc1NC(=O)NCCc1ccc2c(n1)NCCC2 ; cell line: PBMC ; value: 50 µM
S=C(NCCCc1ccccc1)Nc1cccc(OCCCCCc2ccccc2)c1 ; method: MTS ; cell line: Ava5-EG(delta4AB)SEAP ; value: >1 µM
CCC(C)[C@@H]1NC(=O)[C@@H](C(C)CC)NC(=O)[C@H](CC(C)C)NC(=O)[C@H](Cc2c[nH]c3ccccc23)NC(=O)CNC(=O)[C@H](CC(N)=O)NC1=O ; method: MTT ; cell line: Lung carcinoma cells ; value: >30 µM
O=c1cc(NCC(c2ccccc2)N2CCOCC2)c2cccnc2n1O ; cell line: HeLa ; value: <100 µM
CC(C)N(Cc1cccc(OCCCCCC(=O)OC(=O)O)c1)C(=O)c1ccc(-c2cccc(NC=O)c2)cc1 ; cell line: BJ ; value: >20 µM
O=c1cc(NCc2ccccn2)c2cccnc2n1O ; cell line: HeLa ; value: 0.06 µM
Cn1ncc2c(NC(=O)NCCc3ccc4c(n3)NCCC4)cccc21 ; cell line: PBMC ; value: 22 µM
CC(C)N(Cc1cccc(OCCCCCC(=O)OC(=O)O)c1)C(=O)c1ccc(-c2cccc(Oc3ccccc3)c2)cc1 ; cell line: HEK 293 ; value: <13.5 µM
CCOc1ccc(Nc2ncnc3c2cnn3-c2ccc(C)cc2C)cc1 ; cell line: HUH 9B ; value: >34 µM
Cn1ccc2cc(NC(=O)NCCc3ccc4c(n3)NCCC4)ccc21 ; cell line: PBMC ; value: 0.65 µM
CCOC(=O)c1ccc2c(c1)CN(c1cc(=O)n(O)c3ncccc13)CC2 ; cell line: HeLa ; value: <100 µM
CCOC(=O)COc1ccc(CNC(C)C)cc1 ; cell line: BJ ; value: >20 µM
C=C[C@H](CCC[C@@H](CO)N(CCC(C)C)S(=O)(=O)c1ccc(CO)cc1)NC(=O)[C@@H](NC(=O)OC)C(c1ccccc1)c1ccccc1 ; method: microscopy ; cell line: T lymphoid cells ; value: >10 µM
COc1ccc(S(=O)(=O)NCCc2ccc3c(n2)NCCC3)c(OC)c1 ; cell line: PBMC ; value: 50 µM
COC(=O)N[C@@H](Cc1ccccc1Cl)C(=O)N[C@@H](C)CCC[C@@H](CO)N(C(C)C)S(=O)(=O)c1ccc(CO)cc1 ; method: microscopy ; cell line: T lymphoid cells ; value: >10 µM
COc1ccc(-c2ccc(OCCCCCOc3cccc(NC(N)=S)c3)cc2)cc1 ; method: MTS ; cell line: Ava5-EG(delta4AB)SEAP ; value: >1 µM
CCOC(=O)c1c(O)c2cc(C(=O)N3CCC(Cc4ccccc4)C3)cnc2n(O)c1=O ; cell line: HeLa ; value: <100 µM
CC(C)C[C@@H]1NC(=O)[C@@H](Cc2c[nH]c3ccccc23)NC(=O)CNC(=O)[C@@H](CC(N)=O)NC(=O)[C@H](C(C)C)NC(=O)[C@@H](CC(C)C)NC1=O ; method: MTT ; cell line: Lung carcinoma cells ; value: >30 µM
CCCN([C@H](CO)CCC[C@H](CC)NC(=O)[C@H](Cc1ccccc1Cl)NC(=O)OC)S(=O)(=O)c1ccc(N)cc1 ; method: microscopy ; cell line: T lymphoid cells ; value: >10 µM
O=C(NCCc1ccc2c(n1)NCCC2)NC1CC1 ; cell line: PBMC ; value: 50 µM

5 of the rows above, restated:

CC[C@@H](CCC[C@@H](CO)N(CC(C)C)S(=O)(=O)c1ccc(CO)cc1)NC(=O)[C@@H](NC(=O)OC)C(c1ccc(F)cc1)c1ccc(F)cc1 ; method: microscopy ; cell line: T lymphoid cells ; value: >10 µM
CC(C)N(Cc1cccc(OCCCCCC(=O)OC(=O)O)c1)C(=O)c1ccc(-c2cccc(NC=O)c2)cc1 ; cell line: BJ ; value: >20 µM
COc1ccc(S(=O)(=O)NCCc2ccc3c(n2)NCCC3)c(OC)c1 ; cell line: PBMC ; value: 50 µM
Cn1ccc2cc(NC(=O)NCCc3ccc4c(n3)NCCC4)ccc21 ; cell line: PBMC ; value: 0.65 µM
NC(=S)Nc1cccc(OCCCCCOc2ccc(-c3ccsc3)cc2)c1 ; method: MTS ; cell line: Ava5-EG(delta4AB)SEAP ; value: >1 µM

Neighbouring rows are from separate reports.